Laboratory results published in PMC11594364.

Sequences of proteins named here, by UniProt entry; tags and fusion partners are left off. Residues count along the entry.
UniProt P9WG49, whole entry: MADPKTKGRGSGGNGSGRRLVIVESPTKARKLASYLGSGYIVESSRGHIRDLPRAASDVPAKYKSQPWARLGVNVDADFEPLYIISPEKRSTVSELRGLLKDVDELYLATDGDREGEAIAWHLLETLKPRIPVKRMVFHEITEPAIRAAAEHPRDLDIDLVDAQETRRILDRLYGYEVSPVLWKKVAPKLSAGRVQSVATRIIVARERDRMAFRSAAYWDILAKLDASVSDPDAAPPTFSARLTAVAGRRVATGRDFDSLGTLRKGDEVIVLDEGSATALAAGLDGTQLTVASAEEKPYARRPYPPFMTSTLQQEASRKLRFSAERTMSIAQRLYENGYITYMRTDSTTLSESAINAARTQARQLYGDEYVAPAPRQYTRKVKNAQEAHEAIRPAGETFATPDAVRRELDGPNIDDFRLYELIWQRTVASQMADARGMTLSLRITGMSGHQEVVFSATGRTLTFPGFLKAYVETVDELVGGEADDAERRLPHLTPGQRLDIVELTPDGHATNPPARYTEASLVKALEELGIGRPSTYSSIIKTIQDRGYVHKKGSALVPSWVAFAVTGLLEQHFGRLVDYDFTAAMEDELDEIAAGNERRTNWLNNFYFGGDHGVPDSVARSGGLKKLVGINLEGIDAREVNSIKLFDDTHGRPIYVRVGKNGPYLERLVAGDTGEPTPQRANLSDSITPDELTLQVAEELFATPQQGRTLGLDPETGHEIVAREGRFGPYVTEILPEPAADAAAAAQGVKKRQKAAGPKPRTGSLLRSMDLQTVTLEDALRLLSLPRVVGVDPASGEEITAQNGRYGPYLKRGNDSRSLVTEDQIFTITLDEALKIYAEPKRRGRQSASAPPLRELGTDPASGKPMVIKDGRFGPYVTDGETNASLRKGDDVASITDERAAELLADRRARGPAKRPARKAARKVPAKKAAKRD
UniProt P11387, 2-765 limits assumed: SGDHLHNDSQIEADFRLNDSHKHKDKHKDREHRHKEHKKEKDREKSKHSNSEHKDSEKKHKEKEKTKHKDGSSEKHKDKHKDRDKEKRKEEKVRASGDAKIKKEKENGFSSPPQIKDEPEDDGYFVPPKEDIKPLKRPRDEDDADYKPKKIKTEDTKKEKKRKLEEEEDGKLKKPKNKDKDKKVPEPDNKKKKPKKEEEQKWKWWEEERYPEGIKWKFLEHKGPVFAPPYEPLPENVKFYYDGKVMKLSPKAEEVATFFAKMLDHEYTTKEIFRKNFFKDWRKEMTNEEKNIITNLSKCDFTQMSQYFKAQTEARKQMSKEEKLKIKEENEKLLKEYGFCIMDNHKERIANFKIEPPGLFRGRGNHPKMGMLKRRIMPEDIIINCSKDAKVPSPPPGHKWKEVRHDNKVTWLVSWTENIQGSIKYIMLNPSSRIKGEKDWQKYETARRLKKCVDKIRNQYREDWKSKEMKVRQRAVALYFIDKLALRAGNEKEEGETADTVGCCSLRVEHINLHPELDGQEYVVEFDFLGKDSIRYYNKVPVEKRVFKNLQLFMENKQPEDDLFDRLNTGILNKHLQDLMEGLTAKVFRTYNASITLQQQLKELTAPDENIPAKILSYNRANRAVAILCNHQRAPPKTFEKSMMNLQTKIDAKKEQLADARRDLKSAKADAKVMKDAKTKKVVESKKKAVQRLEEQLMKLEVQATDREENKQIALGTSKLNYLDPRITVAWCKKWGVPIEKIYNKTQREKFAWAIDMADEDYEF

Key:
[1] = target: M. tuberculosis topoisomerase I (MtbTOP1) (Mycobacterium tuberculosis, UniProt P9WG49); assay: gel-based relaxation assay of supercoiled plasmid DNA, purified recombinant enzyme, serial dilutions
[2] = target: human topoisomerase I (Homo sapiens, UniProt P11387); assay: as above

SMILES	IC50 [1]	IC50 [2]
CCOC(=O)c1c(NC(=O)CSc2nc3sc(C(=O)O)c(C)c3c(=O)[nH]2)sc(C)c1C	8.3 µM	50 to 100 µM
COc1cc2c(cc1NC(=O)CSc1nc3sc(C(=O)O)c(C)c3c(=O)[nH]1)oc1ccccc12	7 µM	25 to 50 µM
